Results of unrelated studies side by side (data: NIAID ChemDB).

Common to all: growth or infection tests; species: Influenza A virus; method: cytopathic effect; measure: EC50

An empty or dashed field is not shown.

structure,strain or isolate,cell line,value
CC1(C)C[C@@H](O)C[C@](C)(CNC(=S)c2cccc([N+](=O)[O-])c2)C1,H1N1 A/WSN/33,MDCK,>10 µg/mL
COS(=O)(=O)O.N=C(N)c1ccc2cc(OC(=O)c3ccc(N=C(N)N)cc3)ccc2c1,Influenza A/Ishikawa/7/82 (H3N2),MDCK,0.44 µg/mL
CCN(CC)C(=O)N1CCN(c2ncnc(N3CC[N+]4(CC3)CC[N+]3(CCN(c5ncnc(N6CCN(C(=O)N(CC)CC)CC6)c5[N+](=O)[O-])CC3)CC4)c2[N+](=O)[O-])CC1,,MDCK,>70 µg/mL
CC1(C)C[C@H](O)C[C@](C)(CNC(=S)c2cccc(C(F)(F)F)c2)C1,H1N1 A/WSN/33,MDCK,>10 µg/mL
CC1(CO)CCC(Cn2ccc(=O)[nH]c2=O)C1(C)C,H3N2 X31,MDCK,>250 µg/mL
C=C(N=CC)c1nc(-c2ccc(OC)cc2)n(C2O[C@H](CO)[C@@H](O)[C@H](O)[C@H]2O)n1,Ishikawa,MDCK,>200 µg/mL
NS(=O)c1ncnc2c1ncn2[C@@H]1O[C@H](CO)[C@@H](O)[C@@H]1O,,,>320 µM
C/C1=C\C=C\C2(C)C=C(CO[C@H]3O[C@H](CO)[C@H](O)[C@H](O)[C@H]3O)C(C)CC23OC([O-])C(C3=O)C(O)/C=C/C2(C)C=C(CO)C(C)CC23OC([O-])C(C3=O)C(O)/C(C)=C/C=C/C2C=C(CO[C@H]3O[C@H](CO)[C@H](O)[C@H](O)[C@H]3O)C(C)CC23OC([O-])C(C3=O)C(O)/C=C/C2(C)C=C(CO)C(C)CC23OC([O-])C(C3=O)C1O,A/Victoria,MDCK,88 µg/mL
CCCCCCCCCCCCCCCCO[C@H]1N([C@H]2C[C@H](N=[N+]=[N-])[C@@H](CO)O2)C(=O)NC(=O)[C@]1(C)Br,B/Singapore/222/79,MDCK,>500 µg/mL
C=C(N=CC)c1nc(-c2ccccc2)n([C@@H]2O[C@H](CO)[C@@H](O)[C@H]2O)n1,Ishikawa,MDCK,>200 µg/mL
Nc1c(N2CC[N+]3(CC2)CC[N+]2(CCN(c4nc[nH]c(=O)c4N)CC2)CC3)nc[nH]c1=O,,MDCK,>70 µg/mL
CC(=O)N[C@H]1[C@H]([C@H](O)[C@H](O)CO)OC(C(=O)O)=C[C@@H]1N=C(N)N,Influenza A/Shandong/09/03 (H3N2),MDCK,0.043 µM
CCOc1ncn(-c2ccc(NC(=S)Nc3ncccn3)cc2)n1,Ishikawa,MDCK,>8 µg/mL
CC=NC(=N)c1nc(-c2ccc(C)cc2)n(Cc2ccccc2)n1,Ishikawa,MDCK,>20 µg/mL
CCN(C(=O)N1C[C@H](N)[C@](O)(C(=O)O)C1)C(C)C,Influenza A/Victoria/3/75 (H3N2),MDCK,2 µM
Nc1nc2c(ncn2COC(CO)CO)c(=O)[nH]1,,VERO,>400 µg/mL
Nc1ncnc2c1ncn2[C@@H]1O[C@H](C=NO)[C@@H](O)[C@H]1O,Ishiwara,MDCK,0.8 µg/mL
CC1(CO)CCC(Cc2nc3ncnc(N)c3[nH]2)C1(C)C,H3N2 X31,MDCK,>250 µg/mL
CC1(CO)CCC(Cn2nnc3c(=O)[nH]c(N)nc32)C1(C)C,H3N2 X31,MDCK,>50 µg/mL
CC(O)CCCCCC(CCCCCCCCCCCCCC1CC(=O)OC[C@H]2O[C@@H](OC(CCCCCCCCCCCC(CCCCCC(C)O)O[C@@H]3O[C@H](CO)[C@@H](O)[C@H](O)[C@H]3O)CC(=O)OC[C@@H]3O[C@H](O1)[C@@H](O)[C@H](O)[C@H]3O)[C@H](O)[C@@H](O)[C@@H]2O)O[C@@H]1O[C@H](CO)[C@@H](O)[C@H](O)[C@H]1O,H1N1,MDCK,1.9 µg/mL
C/C1=C\C=C\C2(C)C=C(CO)C(C)CC23OC([O-])C(C3=O)C(O)/C=C/C2(C)C=C(CO)C(C)CC23OC([O-])C(C3=O)C(O)/C(C)=C/C=C/C2C=C(CO)C(C)CC23OC([O-])C(C3=O)C(O)/C=C/C2(C)C=C(C=O)C(C)CC23OC([O-])C(C3=O)C1O,A/Victoria,MDCK,9.9 µg/mL
Cc1ccc(C)c(C(=S)NC[C@@]2(C)C[C@@H](O)CC(C)(C)C2)c1,H1N1 A/WSN/33,MDCK,>10 µg/mL
NS(=O)(=O)c1ncnc2c1ncn2[C@@H]1O[C@H](CO)[C@@H](O)[C@@H]1O,,,>320 µM
CC1(CO)CCC(Cn2cnc3c(N)nc(N)nc32)C1(C)C,H3N2 X31,MDCK,>50 µg/mL
CCCOc1ncn(-c2ccc(NC(=S)Nc3ncccn3)cc2)n1,Ishikawa,MDCK,40 µg/mL
NSc1ncnc2c1ncn2[C@@H]1O[C@H](CO)[C@@H](O)[C@@H]1O,,,>320 µM
CC=NC(=N)c1nc(-c2ccc(C)cc2)n(COCCO)n1,Ishikawa,MDCK,>100 µg/mL
Cc1ccc(C(=S)NC[C@@]2(C)C[C@@H](O)CC(C)(C)C2)cc1,H1N1 A/WSN/33,MDCK,>10 µg/mL
C=C(N=CC)c1nc(-c2ccc(OC)cc2)n([C@@H]2O[C@H](CO)[C@@H](O)[C@H]2O)n1,Ishikawa,MDCK,>200 µg/mL
C/C1=C\C=C\C2(C)C=C(CO)C(C)CC23OC([O-])C(C3=O)C(O)/C=C/C2(C)C=C(CO)C(C)CC23OC([O-])C(C3=O)C(O)/C(C)=C/C=C/C2C=C(CO)C(C)CC23OC([O-])C(C3=O)C(O)/C=C/C2(C)C=C(CO)C(C)CC23OC([O-])C(C3=O)C1O,A/Victoria,MDCK,24 µg/mL
Nc1ccn([C@@H]2C[C@H](CO)[C@@H](O)[C@H]2O)c(=O)n1,,MDCK,4.5 µg/mL
CCOC(=O)c1cnc(SC)nc1N1CC[N+]2(CC1)CC[N+]1(CCN(c3nc(SC)ncc3C(=O)OCC)CC1)CC2,,MDCK,>70 µg/mL
CC=NC(=N)c1nc(-c2cccc(OC)c2)n(C/C=C/c2ccccc2)n1,Ishikawa,MDCK,>100 µg/mL
CON=C[C@H]1O[C@@H](n2cnc3c(N)ncnc32)[C@H](O)[C@@H]1O,Ishiwara,MDCK,0.8 µg/mL
CC(=O)N[C@H]1[C@H]([C@H](OC(=O)NCCCCCCNC(=O)CCC(NC(=O)C(F)(F)F)C(=O)NCC(=O)NCCCCCCNC(=O)O[C@@H]([C@@H]2OC(C(=O)O)=C[C@H](N=C(N)N)[C@H]2NC(C)=O)[C@H](O)CO)[C@H](O)CO)OC(C(=O)O)=C[C@@H]1N=C(N)N,A/Victoria/3/75 B010,MDCK,0.002 µg/mL
CCOc1ncn(-c2ccc(NC(=S)NC3O[C@H](CO)[C@@H](O)[C@H](O)[C@H]3O)cc2)n1,Ishikawa,MDCK,>200 µg/mL
Cc1nc(N2CC[N+]3(CC2)CC[N+]2(CCNCC2)CC3)c([N+](=O)[O-])c(N2CC[N+]3(CC2)CC[N+]2(CCNCC2)CC3)n1,,MDCK,>70 µg/mL
CCOC(=O)c1ccc(OC(=O)CCCCCN=C(N)N)cc1.COS(=O)(=O)O,B/Singapore/222/79,MDCK,130 µg/mL
CC1(CO)CCC(Cn2nnc3c(Cl)ncnc32)C1(C)C,H3N2 X31,MDCK,>50 µg/mL
CC1(CO)CCC(Cn2cnc3c(Cl)nc(N)nc32)C1(C)C,H3N2 X31,MDCK,>50 µg/mL
C=C(N=CC)c1nc(-c2cccc(C)c2)n(C2O[C@H](CO)[C@@H](O)[C@H](O)[C@H]2O)n1,Ishikawa,MDCK,>200 µg/mL
Cc1nc(Cl)c([N+](=O)[O-])c(N2CC[N+]3(CC2)CC[N+]2(CCN(c4nc(C)nc(Cl)c4[N+](=O)[O-])CC2)CC3)n1,,MDCK,>70 µg/mL
CC=NC(=N)c1nc(-c2cccc(C)c2)n(COCCO)n1,Ishikawa,MDCK,>100 µg/mL
CCOc1cc(O)c(C(=O)/C=C/c2ccc(OC)cc2)c(OC)c1,NWS,HeLa,>3 µg/mL

A second listing of 3 rows from above:

structure	strain or isolate	cell line	value
CCOC(=O)c1ccc(OC(=O)CCCCCN=C(N)N)cc1.COS(=O)(=O)O	B/Singapore/222/79	MDCK	130 µg/mL
CC(O)CCCCCC(CCCCCCCCCCCCCC1CC(=O)OC[C@H]2O[C@@H](OC(CCCCCCCCCCCC(CCCCCC(C)O)O[C@@H]3O[C@H](CO)[C@@H](O)[C@H](O)[C@H]3O)CC(=O)OC[C@@H]3O[C@H](O1)[C@@H](O)[C@H](O)[C@H]3O)[C@H](O)[C@@H](O)[C@@H]2O)O[C@@H]1O[C@H](CO)[C@@H](O)[C@H](O)[C@H]1O	H1N1	MDCK	1.9 µg/mL
CC1(CO)CCC(Cn2ccc(=O)[nH]c2=O)C1(C)C	H3N2 X31	MDCK	>250 µg/mL

ECn is the concentration giving n% inhibition of infection, replication or growth. Neighbouring rows are from separate reports.